Data source: PubChem BioAssay AID624099 (ICCB-Longwood, 2012)

Aim: 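Knock-downs relieving repression by E2 of an HPV18 LCR luciferase reporter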 (primary screen)
Cell system: human C33A cervical carcinoma cells (HPV-negative) stably expressing BPV1 E2 and an HPV18 LCR luciferase reporter
Knock-down reagent: siRNA pool against human genes, 40 nM
Time to read-out: 72 h
Detection: 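Per-well luciferase luminescence, z-scored on each plate against the plate mean and SD with control wells left out, then averaged across three replicate plates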
Direction: mean z-score and z-score: higher = stronger reporter signal, weaker E2 silencing
Call rule: 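Hit if mean z-score reaches 2 and two or more of three replicate z-scores also reach 2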
Shown is a random part of about 21,000 reagents tested. 497 of them (2.4%) count as active. 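Higher z means weaker E2 silencing; only reporter increases were scored, and knock-downs that hurt cell survival may mask genuine repressor factors.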 The numbers tell different reagents against one gene apart.

| gene knocked down | pool no. | mean z-score | z-score, replicate A | z-score, replicate B | z-score, replicate C | Outcome |
| --- | --- | --- | --- | --- | --- | --- |
| MUC5B (mucin 5B, oligomeric mucus/gel-forming) | 1 | 0.54 | 0.39 | 0.54 | 0.69 | inactive |
| LOC400614 (retired record) | 1 | 0 | -0.12 | 0.28 | -0.16 | inactive |
| H1-8 (H1.8 linker histone) | 1 | -0.28 | -0.31 | -0.34 | -0.19 | inactive |
| DDX20 (DEAD-box helicase 20) | 1 | -0.14 | 0.04 | -0.29 | -0.18 | inactive |
| SLC11A1 | 1 | 0.09 | 0.37 | -0.21 | 0.1 | inactive |
| RAB11A (RAB11A, member RAS oncogene family) | 1 | 1.74 | 1.75 | 1.63 | 1.83 | inactive |
| C7orf57 (chromosome 7 open reading frame 57) | 1 | -1.97 | -2.21 | -1.86 | -1.85 | inactive |
| ZCCHC12 (zinc finger CCHC-type containing 12) | 1 | -0.4 | -0.5 | -0.24 | -0.45 | inactive |
| LOXHD1 (lipoxygenase homology PLAT domains 1) | 1 | -0.58 | -0.42 | -0.78 | -0.56 | inactive |
| AGTPBP1 (ATP/GTP binding carboxypeptidase 1) | 1 | 0.66 | 0.67 | 0.78 | 0.54 | inactive |
| ZNFX1 (zinc finger NFX1-type containing 1) | 1 | -1.15 | -1.15 | -1.28 | -1.04 | inactive |
| ZNF774 (zinc finger protein 774) | 1 | 0.3 | 0.64 | 0.26 | -0.01 | inactive |
| NDRG2 (NDRG family member 2) | 1 | 0.88 | 0.95 | 1.18 | 0.52 | inactive |
| L3MBTL1 (L3MBTL histone methyl-lysine binding protein 1) | 1 | -1.55 | -1.45 | -1.17 | -2.02 | inactive |
| GRAMD1A (GRAM domain containing 1A) | 1 | -0.13 | 0.39 | -0.06 | -0.71 | inactive |
| TMSB15B (thymosin beta 15B) | 1 | 0.68 | 0.96 | 0.54 | 0.55 | inactive |
| SPATA31E1 (SPATA31 subfamily E member 1) | 1 | 0.61 | 1.18 | 0.17 | 0.48 | inactive |
| ARFGEF2 (ARF guanine nucleotide exchange factor 2) | 1 | 0.39 | 0.52 | 0.19 | 0.46 | inactive |
| SLC26A1 | 1 | -0.99 | -1.02 | -0.99 | -0.97 | inactive |
| C8orf44 (chromosome 8 putative open reading frame 44) | 1 | -1.1 | -0.91 | -1.14 | -1.26 | inactive |
| APH1B (aph-1B gamma-secretase subunit) | 1 | 0.67 | 0.52 | 0.76 | 0.71 | inactive |
| APH1B (aph-1B gamma-secretase subunit) | 2 | -0.2 | -0.2 | -0.56 | 0.15 | inactive |
| NFATC1 (nuclear factor of activated T cells 1) | 1 | -1.05 | -1.18 | -0.91 | -1.05 | inactive |
| PPP1R14C (protein phosphatase 1 regulatory inhibitor subunit 14C) | 1 | 0.01 | -0.11 | 0.36 | -0.22 | inactive |
| FABP4 (fatty acid binding protein 4) | 1 | 0.21 | 0.4 | 0.25 | -0.03 | inactive |
| MAGEA2 (MAGE family member A2) | 1 | 3.02 | 3.03 | 2.95 | 3.1 | active |
| SMURF1 (SMAD specific E3 ubiquitin protein ligase 1) | 1 | 0.5 | 0.45 | 0.41 | 0.65 | inactive |
| GPCPD1 (glycerophosphocholine phosphodiesterase 1) | 1 | 1.3 | 0.77 | 1.44 | 1.68 | inactive |
| SF3B4 (splicing factor 3b subunit 4) | 1 | -2.44 | -2.3 | -2.49 | -2.52 | inactive |
| RTP4 (receptor transporter protein 4) | 1 | 0.93 | 0.97 | 1.17 | 0.65 | inactive |
| LINC01623 (long independently transcribed non-coding RNA 1623) | 1 | 0.5 | 0.32 | 0.64 | 0.56 | inactive |
| EEF1A1P33 | 1 | -0.17 | 0.01 | -0.12 | -0.4 | inactive |
| GLIS1 (GLIS family zinc finger 1) | 1 | -0.69 | -1.34 | -0.53 | -0.2 | inactive |
| FBXO44 (F-box protein 44) | 1 | 2.26 | 2.58 | 2.26 | 1.94 | active |

6 entries from above, arranged by “z-score, replicate A”, lowest first:
| gene knocked down | pool no. | mean z-score | z-score, replicate A | z-score, replicate B | z-score, replicate C | Outcome |
| --- | --- | --- | --- | --- | --- | --- |
| SF3B4 (splicing factor 3b subunit 4) | 1 | -2.44 | -2.3 | -2.49 | -2.52 | inactive |
| LINC01623 (long independently transcribed non-coding RNA 1623) | 1 | 0.5 | 0.32 | 0.64 | 0.56 | inactive |
| SMURF1 (SMAD specific E3 ubiquitin protein ligase 1) | 1 | 0.5 | 0.45 | 0.41 | 0.65 | inactive |
| GPCPD1 (glycerophosphocholine phosphodiesterase 1) | 1 | 1.3 | 0.77 | 1.44 | 1.68 | inactive |
| RTP4 (receptor transporter protein 4) | 1 | 0.93 | 0.97 | 1.17 | 0.65 | inactive |
| MAGEA2 (MAGE family member A2) | 1 | 3.02 | 3.03 | 2.95 | 3.1 | active |

Continued.
| gene knocked down | pool no. | mean z-score | z-score, replicate A | z-score, replicate B | z-score, replicate C | Outcome |
| --- | --- | --- | --- | --- | --- | --- |
| TFPT (TCF3 fusion partner) | 1 | -0.6 | -0.32 | -0.62 | -0.87 | inactive |
| LOC441038 (retired record) | 1 | -0.8 | -1.01 | -0.8 | -0.6 | inactive |
| MYLK2 (myosin light chain kinase 2) | 1 | -0.78 | -0.83 | -0.65 | -0.86 | inactive |
| PDX1 (pancreatic and duodenal homeobox 1) | 1 | -1.25 | -1.14 | -1.36 | -1.27 | inactive |
| DENND6B (DENN domain containing 6B) | 1 | 0.84 | 0.95 | 0.91 | 0.67 | inactive |
| CORO6 (coronin 6) | 1 | -0.79 | -1.36 | -1.32 | 0.3 | inactive |
| TNXB (tenascin XB) | 1 | -0.48 | -0.58 | -0.31 | -0.56 | inactive |
| GDPD5 (glycerophosphodiester phosphodiesterase domain containing 5) | 1 | -0.31 | -0.18 | -0.56 | -0.19 | inactive |
| HAUS5 (HAUS augmin like complex subunit 5) | 1 | 1.86 | 1.84 | 1.79 | 1.94 | inactive |
| CCDC191 (coiled-coil domain containing 191) | 1 | -0.16 | 0.04 | -0.28 | -0.25 | inactive |
| PYHIN1 (pyrin and HIN domain family member 1) | 1 | 0.31 | -0.05 | 0.91 | 0.07 | inactive |
| TRPM2 | 1 | -0.63 | -0.51 | -0.91 | -0.47 | inactive |
| MPHOSPH10 (M-phase phosphoprotein 10) | 1 | -0.98 | -0.81 | -1.09 | -1.05 | inactive |
| TOP6BL (TOP6B like initiator of meiotic double strand breaks) | 1 | -0.22 | -0.34 | -0.39 | 0.08 | inactive |
| PDE2A (phosphodiesterase 2A) | 1 | -0.42 | -0.52 | -0.48 | -0.26 | inactive |
| HTRA4 (HtrA serine peptidase 4) | 1 | -0.67 | -0.89 | -0.8 | -0.34 | inactive |
| LINC02232 (long independently transcribed non-coding RNA 2232) | 1 | 0.12 | 1.26 | -0.46 | -0.44 | inactive |
| S100A7 (S100 calcium binding protein A7) | 1 | 0.79 | 0.53 | 0.7 | 1.12 | inactive |
| RNF115 (ring finger protein 115) | 1 | -0.25 | -0.44 | -0.2 | -0.12 | inactive |
| ZNF222 (zinc finger protein 222) | 1 | 1.49 | 1.41 | 1.72 | 1.33 | inactive |
| C10orf88B (C10orf88B (pseudogene)) | 1 | 0.6 | 0.74 | 0.39 | 0.69 | inactive |
| ARID2 (AT-rich interaction domain 2) | 1 | 0.47 | 0.61 | 0.55 | 0.26 | inactive |
| PLS3 (plastin 3) | 1 | 0.5 | 0.26 | 0.67 | 0.59 | inactive |
